Literature values in patent US6727226B2 (priority 2000, dated 2004).

Sequences of proteins named here, by UniProt entry; tags and fusion partners are left off.
UniProt Q00975, whole entry, looked up: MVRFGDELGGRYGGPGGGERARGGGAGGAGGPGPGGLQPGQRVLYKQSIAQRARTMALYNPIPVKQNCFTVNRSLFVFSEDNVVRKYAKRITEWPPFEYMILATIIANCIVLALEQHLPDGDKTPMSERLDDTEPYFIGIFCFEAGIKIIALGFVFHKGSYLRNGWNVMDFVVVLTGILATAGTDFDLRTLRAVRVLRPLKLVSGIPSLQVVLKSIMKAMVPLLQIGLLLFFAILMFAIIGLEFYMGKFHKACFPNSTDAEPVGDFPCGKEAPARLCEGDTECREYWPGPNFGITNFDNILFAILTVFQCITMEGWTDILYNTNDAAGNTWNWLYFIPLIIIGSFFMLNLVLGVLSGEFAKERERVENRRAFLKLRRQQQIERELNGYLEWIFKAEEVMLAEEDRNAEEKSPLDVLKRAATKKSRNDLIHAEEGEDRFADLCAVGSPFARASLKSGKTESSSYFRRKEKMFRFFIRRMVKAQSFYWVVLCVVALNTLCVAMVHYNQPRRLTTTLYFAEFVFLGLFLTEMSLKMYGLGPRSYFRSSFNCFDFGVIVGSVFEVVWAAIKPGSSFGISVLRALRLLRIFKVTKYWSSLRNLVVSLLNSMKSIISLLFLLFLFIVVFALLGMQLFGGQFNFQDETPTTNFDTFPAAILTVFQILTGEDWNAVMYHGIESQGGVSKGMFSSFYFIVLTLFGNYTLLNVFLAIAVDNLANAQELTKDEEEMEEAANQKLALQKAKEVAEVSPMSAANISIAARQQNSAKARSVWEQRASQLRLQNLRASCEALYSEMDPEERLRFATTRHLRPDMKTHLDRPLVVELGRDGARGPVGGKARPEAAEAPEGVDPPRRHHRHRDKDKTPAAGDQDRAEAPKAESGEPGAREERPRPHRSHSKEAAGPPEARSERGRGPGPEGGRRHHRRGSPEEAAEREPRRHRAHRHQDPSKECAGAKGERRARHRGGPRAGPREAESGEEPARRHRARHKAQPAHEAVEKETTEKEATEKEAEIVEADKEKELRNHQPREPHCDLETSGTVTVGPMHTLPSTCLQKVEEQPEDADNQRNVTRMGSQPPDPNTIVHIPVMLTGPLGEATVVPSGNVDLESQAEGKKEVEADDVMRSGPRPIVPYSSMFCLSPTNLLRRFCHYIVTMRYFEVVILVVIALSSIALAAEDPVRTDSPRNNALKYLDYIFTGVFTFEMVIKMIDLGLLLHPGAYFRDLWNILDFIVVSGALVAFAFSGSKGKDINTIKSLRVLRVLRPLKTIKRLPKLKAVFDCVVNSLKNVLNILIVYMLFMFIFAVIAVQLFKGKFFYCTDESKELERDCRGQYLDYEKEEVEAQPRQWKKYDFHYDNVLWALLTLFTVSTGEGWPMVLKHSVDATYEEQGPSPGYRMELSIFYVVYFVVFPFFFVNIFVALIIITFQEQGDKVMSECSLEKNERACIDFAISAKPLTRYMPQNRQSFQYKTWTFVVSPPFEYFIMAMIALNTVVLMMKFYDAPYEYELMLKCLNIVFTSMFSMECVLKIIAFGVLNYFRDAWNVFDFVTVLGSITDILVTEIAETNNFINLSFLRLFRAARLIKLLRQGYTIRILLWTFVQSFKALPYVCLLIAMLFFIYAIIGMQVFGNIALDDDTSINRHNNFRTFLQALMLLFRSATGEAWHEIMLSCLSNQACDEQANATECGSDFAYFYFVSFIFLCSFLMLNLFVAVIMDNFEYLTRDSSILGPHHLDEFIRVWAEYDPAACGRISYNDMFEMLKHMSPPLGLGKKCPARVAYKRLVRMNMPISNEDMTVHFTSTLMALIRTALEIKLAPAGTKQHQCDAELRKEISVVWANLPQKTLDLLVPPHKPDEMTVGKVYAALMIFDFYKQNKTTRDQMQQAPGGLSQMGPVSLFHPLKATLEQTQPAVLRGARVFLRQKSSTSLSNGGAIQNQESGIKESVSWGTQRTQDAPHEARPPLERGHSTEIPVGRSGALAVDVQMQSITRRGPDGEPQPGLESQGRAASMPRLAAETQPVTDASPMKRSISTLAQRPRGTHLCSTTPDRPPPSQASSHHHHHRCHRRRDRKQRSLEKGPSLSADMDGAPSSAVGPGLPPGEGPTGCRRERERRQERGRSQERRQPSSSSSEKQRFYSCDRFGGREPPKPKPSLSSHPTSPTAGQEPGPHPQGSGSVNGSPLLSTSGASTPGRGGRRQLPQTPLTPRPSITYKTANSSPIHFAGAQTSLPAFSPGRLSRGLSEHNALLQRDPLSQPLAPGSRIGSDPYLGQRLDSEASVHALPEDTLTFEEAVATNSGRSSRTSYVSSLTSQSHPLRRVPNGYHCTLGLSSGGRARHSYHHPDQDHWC

Biological target: N-type calcium channel (Homo sapiens, UniProt Q00975)
Conditions: cited from earlier work

In the case of `CSCC[C@@H]1NC(=O)[C@H](CC(C)C)NC(=O)[C@H](CCCNC(=N)N)NC(=O)[C@H](CO)NC(=O)[C@@H]2CSSC[C@@H]3NC(=O)[C@H](CO)NC(=O)CNC(=O)[C@H]([C@@H](C)O)NC(=O)[C@H](CSSC[C@H](N)C(=O)N[C@@H](CCCCN)C(=O)NCC(=O)N[C@@H](CCCCN)C(=O)NCC(=O)N[C@@H](C)C(=O)N[C@@H](CCCCN)C(=O)N2)NC(=O)[C@H](CSSC[C@@H](C(N)=O)NC(=O)[C@H](CCCCN)NC(=O)CNC(=O)[C@H](CO)NC(=O)[C@H](CCCNC(=N)N)NC3=O)NC(=O)[C@H](CC(=O)O)NC(=O)[C@H](Cc2ccc(O)cc2)NC1=O`, the “tolerance or addictive properties” value (compared with opiates) is given as “does not produce the tolerance or addictive properties of opiates” and the “potency relative to morphine” value (more potent than morphine) is given as “approximately 1000 times”.
